Data set [1] has as its system HIV-1 (IIIB).
The test system of data set [2] is HIV-2 (ROD).
Data set [3] deals with HIV-1.

This note sets out measurements from PMC9119080 (European journal of medicinal chemistry, 2021).

For the compound `CN(C(=O)[C@H](Cc1ccccc1)NC(=O)c1cccc(C(=O)Nc2ccccc2NC(=O)OC(C)(C)C)c1)c1ccc2scnc2c1` [7t, tert-butyl(S)-(2-(3-((1-(benzo[d]thiazol-5-yl(methyl)amino)-1-oxo-3-phenylpropan-2-yl)carbamoyl)benzamido)phenyl) carbamate], the “SI IIIB (CC50/EC50)” value in data set [1] was over 1.39. For the same compound, the “SI ROD (CC50/EC50)” value in data set [2] was over 78.26.
For `CN(C(=O)[C@H](Cc1ccccc1)NC(=O)c1cccc(C(=O)Nc2ccc(NC(=O)OC(C)(C)C)cc2)c1)c1ccc2scnc2c1` [7r, tert-butyl(S)-(4-(3-((1-(benzo[d]thiazol-5-yl(methyl)amino)-1-oxo-3-phenylpropan −2-yl)carbamoyl)benzamido)phenyl) carbamate] the same measures were under 1 and under 1.
`CN(C(=O)[C@H](Cc1ccccc1)NC(=O)c1cccc(C(=O)Nc2ccc(C(F)(F)F)cc2)c1)c1ccc2scnc2c1` [7i, (S)–N1-(1-(benzo[d]thiazol-5-yl(methyl)amino)-1-oxo-3-phenylpropan-2-yl)-N3-(4-(trifluoromethyl)phenyl)isophthalamide]: the “SI IIIB (CC50/EC50)” value in data set [1] is given as at most 2.23. The “SI ROD (CC50/EC50)” value in data set [2] was under 1.
As to `CN(C(=O)[C@H](Cc1ccccc1)NC(=O)c1cccc(C(=O)Nc2cccc(NC(=O)OC(C)(C)C)c2)c1)c1ccc2scnc2c1` [7s, tert-butyl(S)-(3-(3-((1-(benzo[d]thiazol-5-yl(methyl)amino)-1-oxo-3-phenylpropan-2-yl)carbamoyl)benzamido)phenyl) carbamate], the “SI ROD (CC50/EC50)” value in data set [2] was over 6.81.
For `CN(C(=O)[C@H](Cc1ccccc1)NC(=O)c1cccc(C(=O)Nc2ccc(N)cc2)c1)c1ccc2scnc2c1` [7u, (S)eN1-(4-aminophenyl)-N3-(1-(benzo[d]thiazol-5-yl(methyl)amino)-1-oxo-3-phenylpropan-2-yl)isophthalamide], the “action stage in HIV-1 life cycle” value in data set [3] was “function at both the early and late stages”.
For the compound `Cc1[nH]c2ccccc2c1CC(=O)N[C@@H](Cc1ccccc1)C(=O)N(C)c1ccccc1` [PF74, reference compound], the late-stage effect result in data set [3] is on record as “no late-stage effect”.
